{
  "source": "paper PMC3689846",
  "about": "(Science (New York, N.Y.), 2013)",
  "key": {"[1]": {"target": "eOD-GT3 (HIV-1 strain HxB2)", "assay": "SPR"}, "[2]": {"target": "eOD-GT6 (germline-targeting engineered outer domain of gp120) (HIV-1 isolate HXB2, engineered outer domain eOD-GT6)", "assay": "SPR"}},
  "note": "pKd: −log10 of the molar value.",
  "data": [
    {"substance": "GL-VRC01 (predicted germline precursor of VRC01) (antibody)", "values": [
      {"measurement": "pKd", "setting": "[1]", "value": 6.66},
      {"measurement": "pKd", "setting": "[2]", "value": 7.36}
    ]}
  ]
}
